{
  "source": "patent US8212038B2",
  "about": "“Methods and compositions for controlling ectoparasites” (HatchTech Pty Ltd., priority 2003, dated 2012)",
  "tested_on": "lice eggs",
  "test": "Time course in vitro lice egg hatching assay",
  "type": "in vivo, Pediculus humanus humanus",
  "details": "5%; results not shown",
  "data": [
    {"compound": "OCCN(CCO)CCO", "values": [
      {"measurement": "effect on egg hatching (in words)", "value": "did not appear to have an effect on egg hatching"}
    ]}
  ]
}
